A mixed list of measured activities; the numbers were collected in NIAID ChemDB.

Shared fields: whole-cell or culture tests; organism: Human cytomegalovirus; read-out: EC50

ECn: concentration that inhibits the pathogen or its effect by n%. Lines come from different laboratories, so protocols vary. Two numbers with a dash give a range or band. Blank or dashed fields: not listed here.

Cn1cc(C(=O)NCc2ccc(Cl)cc2)c(=O)c2cc(CN3CCOCC3)ccc21 ; read by: plaque count ; strain or isolate: AD169 ; cells: VERO ; value: 0.4 µM
Nc1nc(=O)n([C@H]2O[C@@H](CO)[C@H](O)[C@H]2F)cc1I ; read by: plaque count ; strain or isolate: WF1 ; cells: FLOW 2002 ; value: >100 µg/mL
Nc1nc2c(ncn2CCC(CO)CO)c(=O)[nH]1 ; read by: plaque count ; strain or isolate: DAVIS ; cells: HEL ; value: >50 µg/mL
CCCCOC[C@H]1O[C@@H]2CC(C)(C)C[C@@H]2[C@H]1OCCCC ; read by: plaque count ; strain or isolate: DAVID ; cells: HEL ; value: 7.6 µg/mL
Nc1nc2c(ncn2COC(CO)CO)c(=O)[nH]1 ; read by: plaque count ; strain or isolate: AD169 ; cells: MRC-5 ; value: 0.9 µM
CC(=O)Nc1ccc(NC(=S)Nc2cc(Cl)c(O)c(Cl)c2C)cc1 ; read by: plaque count ; value: 50 µg/mL
CO[C@@H]1[C@H](O)[C@@H](CO)O[C@H]1c1ccccc1 ; read by: plaque count ; strain or isolate: DAVID ; cells: HEL ; value: >50 µg/mL
C/C(=C\Cn1ccc(=O)[nH]c1=O)CO ; value: >100 µg/mL
C#CCNc1nc(N)nc2c1ncn2/C=C1/C[C@@H]1CO ; read by: plaque count ; strain or isolate: AD169 ; cells: HFF ; value: 2.6 µM
CCOP(=O)(O)COCOn1cnc2c(=O)[nH]c(N)nc21 ; strain or isolate: AD169 ; value: 0.24 µg/mL
OC[C@H]1O[C@@H](c2cc(I)c(F)cc2F)C[C@@H]1O ; read by: cytopathic effect ; strain or isolate: DAVIS ; cells: HEL ; value: >200 µM
Cc1cn(CC=C(CO)CO)c(=O)[nH]c1=O ; value: >100 µg/mL
[O-][n+]1onc2ncnc(N3CC[N+]4(CC3)CC[N+]3(CCN(c5ncnc6no[n+]([O-])c56)CC3)CC4)c21 ; read by: plaque count ; cells: MRC-5 ; value: 12.3 µM
OC[C@H]1O[C@@H](c2cc(F)c(F)cc2F)C[C@@H]1O ; read by: cytopathic effect ; strain or isolate: DAVIS ; cells: HEL ; value: >200 µM
Nc1nc(Cl)c2ncn(/C=C3/C[C@H]3CO)c2n1 ; read by: cytopathic effect ; cells: HFF ; value: 5.6 µM
OC[C@H]1O[C@@H](c2cc(Br)c(F)cc2F)C[C@@H]1O ; read by: cytopathic effect ; strain or isolate: DAVIS ; cells: HEL ; value: >200 µM
Nc1nc2c(ncn2COC(CO)CO)c(=O)[nH]1 ; read by: plaque count ; value: 1–10 µM
CCCCCCCc1cc2cnc(=O)[nH]c2o1 ; read by: cytopathic effect ; strain or isolate: AD169 ; cells: HEL ; value: >400 µM
COc1cc(OC)c(NC(=S)Nc2ccc(NC(C)=O)cc2)cc1Cl ; read by: plaque count ; value: >50 µg/mL
O=c1ccn([C@H]2C[C@H](O)[C@]3(CO)C[C@H]23)c(=O)[nH]1 ; read by: cytopathic effect ; cells: HFF ; value: >100 µg/mL
O=C(Nc1ccc(NC(=S)NC(CO)c2ccccc2)cc1)c1ccccc1F ; read by: virus yield ; cells: HFF ; value: 10 µg/mL
Nc1cc([C@H]2C[C@H](O)[C@@H](CO)O2)c(F)cc1F ; read by: cytopathic effect ; strain or isolate: AD169 ; cells: HEL ; value: >200 µM
O=c1ccn(CC=C(CO)CO)c(=O)[nH]1 ; value: >100 µg/mL
Nc1ncnc2c1ncn2/C=C1\[C@H](CO)C1(F)F ; strain or isolate: TOWNE ; cells: HFF ; value: 21 µM
Nc1nc2c(ncn2COC(CO)CO)c(=O)[nH]1 ; read by: plaque count ; strain or isolate: 48041 (DHPG-R) ; value: 50.4 µM
Nc1nc2c(ncn2C=C2CC2CO)c(=O)[nH]1 ; read by: plaque count ; strain or isolate: VR6200 (ganciclovir-susceptible) ; value: 2 µM
C=CCO[C@@H]1[C@@H](OCC=C)[C@H](Cc2ccccc2)O[C@@H]2CO[C@@H](c3ccccc3)O[C@@H]12 ; read by: plaque count ; strain or isolate: AD169 ; cells: HEL ; value: 1.1 µg/mL
CCCCCCCC#Cc1cn(S(=O)(=O)c2ccc(C)cc2)c(=O)[nH]c1=O ; read by: cytopathic effect ; strain or isolate: DAVIS ; cells: HEL ; value: >16 µM
Nc1nc2c(ncn2COC(CO)CO)c(=O)[nH]1 ; read by: plaque count ; cells: HFF ; value: 7.4 µM
COc1cc(F)c([C@H]2C[C@H](O)[C@@H](CO)O2)cc1[N+](=O)[O-] ; read by: cytopathic effect ; strain or isolate: AD169 ; cells: HEL ; value: >200 µM
Nc1nc(NC2CC2)c2ncn(/C=C3\CC3(CO)CO)c2n1 ; read by: plaque count ; strain or isolate: AD169 ; cells: HFF ; value: 377 µM
CC(C)Nc1nc2cc(Cl)c(Cl)cc2n1[C@H]1O[C@@H](CO)[C@H](O)[C@@H]1O ; value: <1 µM
Nc1ccn([C@@H]2O[C@@H](CO)[C@@H](O)[C@@H]2O)c(=O)n1 ; read by: plaque count ; strain or isolate: WF1 ; cells: FLOW 2002 ; value: 40 µg/mL
Nc1ccn(C[C@@H](CO)OCP(=O)(O)O)c(=O)n1 ; read by: plaque count ; cells: WI-38 ; value: 10–100 µg/mL
Nc1nc2c(ncn2COC(CO)OCP(=O)(O)O)c(=O)[nH]1 ; read by: cytopathic effect ; cells: MRC-5 ; value: 0.9 µg/mL
OC[C@H]1O[C@@H](c2cc(C(F)(F)F)c(F)cc2F)C[C@@H]1O ; read by: cytopathic effect ; strain or isolate: AD169 ; cells: HEL ; value: >200 µM
C/C(=C\Cn1cc(I)c(=O)[nH]c1=O)CO ; value: >100 µg/mL
OC[C@H]1O[C@@H](c2ccc(F)cc2F)C[C@@H]1O ; read by: cytopathic effect ; strain or isolate: DAVIS ; cells: HEL ; value: >200 µM
[N-]=[N+]=N[C@@H]1C[C@@H](CO)S[C@@H]1n1cnc2c(Cl)ncnc21 ; value: <100 µg/mL
Nc1nc2c(ncn2C[C@H]2CO[C@H](CP(=O)(O)O)O2)c(=O)[nH]1 ; value: 1.5 µg/mL
CC1=CCC/C=C/CC[C@@]2(C)O[C@@H]2C[C@H]2[C@@H](CC(=O)[C@@H]2C)[C@@H]1OC(C(=O)O)(c1ccccc1)C(F)(F)F ; read by: MTT ; value: 5.2 µg/mL
CCCCCCC#Cc1cn(S(=O)(=O)c2ccc(C)cc2)c(=O)[nH]c1=O ; read by: cytopathic effect ; strain or isolate: AD169 ; cells: HEL ; value: >16 µM
CCOP(=O)([O-])CCC(CO)OCn1cnc2c(=O)[nH]c(N)nc21 ; read by: plaque count ; strain or isolate: AD169 ; cells: MRC-5 ; value: 2.5 µg/mL
CC#Cc1cn([C@@H]2O[C@H](CO)[C@@H](O)[C@@H]2O)c(=O)[nH]c1=O ; read by: plaque count ; cells: MRC-5 ; value: >100 µM
CN(C)c1cccc2c(S(=O)(=O)Nc3ccc(NC(=O)C(C)(C)CO)cc3)cccc12 ; read by: plaque count ; strain or isolate: Isolate HE ; value: 0.89 µM
CCOP(=O)([O-])CCCOCn1cnc2c(=O)[nH]c(N)nc21 ; read by: plaque count ; strain or isolate: AD169 ; cells: MRC-5 ; value: 16 µg/mL
Nc1ncnc2c1ncn2[C@@H]1C=C(CO)[C@@H](O)[C@H]1O ; read by: plaque count ; strain or isolate: DAVIS ; cells: HEL ; value: 0.15 µg/mL
[N-]=[N+]=N[C@H]1C[C@@H](CO)S[C@@H]1n1cnc2c(N)ncnc21 ; value: >100 µg/mL
CCCSc1nc(N)nc2c1ncn2/C=C1/C[C@@H]1CO ; read by: plaque count ; strain or isolate: AD169 ; cells: HFF ; value: 3 µM
Nc1nc2c(ncn2CC(CO)OCP(=O)(O)O)c(=O)[nH]1 ; read by: plaque count ; cells: WI-38 ; value: 0.4 µM
CCCCCCCCc1cc2cnc(=O)[nH]c2o1 ; read by: cytopathic effect ; strain or isolate: DAVIS ; cells: HEL ; value: >400 µM
C=C1[C@H](n2ccc(N)nc2=O)O[C@H](CO)[C@H]1O ; read by: plaque count ; strain or isolate: WF1 ; cells: FLOW 2002 ; value: 0.04 µg/mL
Nc1nc(NCc2ccccc2)c2ncn(/C=C3/C[C@@H]3CO)c2n1 ; read by: plaque count ; strain or isolate: AD169 ; cells: HFF ; value: >310 µM
[N-]=[N+]=N[C@H]1C[C@H](CO)S[C@@H]1n1ccc(N)nc1=O ; value: <100 µg/mL
CCCCCCCCCCCCCCCCOCCCOP(=O)(O)OCC(CO)OCn1cnc2c(=O)[nH]c(N)nc21 ; read by: plaque count ; strain or isolate: Toledo ; cells: MRC-5 ; value: 3.3 µM
Nc1nc2c(ncn2COC(CO)CO)c(=O)[nH]1 ; read by: ELISA ; strain or isolate: Isolate 539 ; cells: MRC-5 ; value: 6.45 µM
OC[C@H]1O[C@@H](n2c(Cl)nc3cc4cc(Cl)c(Cl)cc4cc32)[C@H](O)[C@@H]1O ; value: 8–16 µM
CCCCC#Cc1c[nH]c(=O)[nH]c1=O ; read by: cytopathic effect ; strain or isolate: DAVIS ; cells: HEL ; value: >400 µM
CC(C)Nc1nc(N)nc2c1ncn2/C=C1/C[C@@H]1CO ; read by: plaque count ; strain or isolate: AD169 ; cells: HFF ; value: >365 µM
CCCCc1cc2cnc(=O)[nH]c2o1 ; read by: cytopathic effect ; strain or isolate: AD169 ; cells: HEL ; value: >400 µM
[N-]=[N+]=N[C@H]1C[C@H](CO)S[C@H]1n1cnc2c(Cl)ncnc21 ; value: <100 µg/mL

A second listing of 6 rows from above:

smiles,read by,strain or isolate,cells,value
[O-][n+]1onc2ncnc(N3CC[N+]4(CC3)CC[N+]3(CCN(c5ncnc6no[n+]([O-])c56)CC3)CC4)c21,plaque count,,MRC-5,12.3 µM
Nc1nc(NCc2ccccc2)c2ncn(/C=C3/C[C@@H]3CO)c2n1,plaque count,AD169,HFF,>310 µM
COc1cc(OC)c(NC(=S)Nc2ccc(NC(C)=O)cc2)cc1Cl,plaque count,,,>50 µg/mL
CN(C)c1cccc2c(S(=O)(=O)Nc3ccc(NC(=O)C(C)(C)CO)cc3)cccc12,plaque count,Isolate HE,,0.89 µM
Nc1ncnc2c1ncn2/C=C1\[C@H](CO)C1(F)F,,TOWNE,HFF,21 µM
C/C(=C\Cn1cc(I)c(=O)[nH]c1=O)CO,,,,>100 µg/mL